Measured values from several laboratories, pooled; numbers as filed in NIAID ChemDB.

Common to all: whole-cell or culture tests; species: Human cytomegalovirus; cells: HFF; endpoint: EC50

Rows are shuffled and stem from different studies.

{"compound": "COc1c(C=O)c2cc(Cl)c(Cl)cc2n1[C@@H]1O[C@H](CO)[C@@H](O)[C@H]1O", "read by": "plaque count", "value": "4 µM"}
{"compound": "Cc1cn([C@@H]2C[C@](O)(CO)CO2)c(=O)[nH]c1=O", "strain": "AD169", "value": ">100 µM"}
{"compound": "OC[C@H]1O[C@@H](n2c(=S)[nH]c3cc(Cl)c(Cl)cc32)C[C@@H]1O", "strain": "TOWNE", "read by": "plaque count", "value": ">100 µM"}
{"compound": "OC[C@H]1O[C@@H](c2c(Cl)[nH]c3cc(Cl)c(Cl)cc23)[C@H](O)[C@@H]1O", "read by": "plaque count", "value": ">100 µM"}
{"compound": "OC[C@@H]1O[C@@H](n2c(Cl)nc3cc(Cl)c(Cl)cc32)[C@H](O)[C@H]1O", "read by": "plaque count", "value": "51 µM"}
{"compound": "OC[C@H]1O[C@@H](n2c(Cl)nc3cc(Cl)c(Cl)cc32)[C@H](O)[C@@H]1O", "read by": "plaque count", "value": "2.9 µM"}
{"compound": "CC(C)[C@H](NC(=O)CN)C(=O)OCC(COC(=O)[C@@H](NC(=O)CN)C(C)C)OCn1cnc2c(=O)[nH]c(N)nc21", "read by": "plaque count", "value": "3.6 µM"}
{"compound": "CCCCCCCCCCCCO[C@@H]1O[C@H](CO)[C@@H](OP(=O)(O)C(=O)O)[C@H](O)[C@H]1O", "strain": "TOWNE", "value": "60 µM"}
{"compound": "CC(=O)Oc1ccc([C@@H]2CC(=O)c3c(cc(OC(C)=O)c(-c4c(OC(C)=O)cc5c(c4OC(C)=O)C(=O)C[C@@H](c4ccc(OC(C)=O)cc4)O5)c3OC(C)=O)O2)cc1", "read by": "cytopathic effect", "value": ">4 µg/mL"}
{"compound": "CCCCCCCCCCCCCCO[C@@H]1O[C@H](COP(=O)(O)C(=O)O)[C@@H](O)[C@H](O)[C@H]1O", "strain": "TOWNE", "value": "4.2 µM"}
{"compound": "O=C(Nc1ccc(NC(=S)NC(CO)c2ccccc2)cc1)c1ccccc1F", "read by": "virus yield", "value": "10 µg/mL"}
{"compound": "CC(N)c1cn([C@H]2C[C@H](O)[C@@H](CO)O2)c(=O)[nH]c1=O", "strain": "AD169", "read by": "cytopathic effect", "value": "5.9 µM"}
{"compound": "Cn1cc(C(=O)NCc2ccc(Cl)cc2)c(=O)c2cc(CN3CCOCC3)ccc21", "strain": "759/R D100 (GCV-resistant)", "read by": "plaque count", "value": "4.2 µM"}
{"compound": "O=Cc1c(Cl)n([C@@H]2O[C@H](CO)[C@@H](O)[C@H]2O)c2cc(Cl)c(Cl)cc12", "read by": "plaque count", "value": "0.23 µM"}
{"compound": "OC[C@H]1O[C@@H](n2c(Br)nc3cc(Cl)c(Cl)cc32)[C@H](O)[C@@H]1O", "strain": "C4 (BDCRB-resistant)", "read by": "plaque count", "value": "33 µM"}
{"compound": "C=CCNc1nc(N)nc2c1ncn2/C=C1/C[C@@H]1CO", "read by": "plaque count", "value": "2.8 µM"}
{"compound": "CC(C)Nc1nc2cc(Cl)c(Cl)cc2n1[C@H]1O[C@@H](CO)[C@H](O)[C@@H]1O", "strain": "Isolate Helebrand (wild type)", "read by": "plaque count", "value": "0.33 µM"}
{"compound": "Nc1ncnc2c1ncn2/C=C1\\[C@H](CO)C1(F)F", "strain": "TOWNE", "value": "21 µM"}
{"compound": "CCc1nc2c3c(cn([C@@H]4O[C@H](CO)[C@@H](O)[C@H]4O)c3n1)C(N)=NN2C", "read by": "plaque count", "value": ">100 µM"}
{"compound": "CNc1nc2cc(Cl)c(Cl)cc2n1[C@@H]1O[C@@H](CO)[C@H](O)[C@H]1O", "read by": "plaque count", "value": ">100 µM"}
{"compound": "CC(=O)n1c(Cl)c([C@@H]2O[C@H](CO)[C@@H](O)[C@H]2O)c2cc(Cl)c(Cl)cc21", "read by": "plaque count", "value": ">100 µM"}
{"compound": "Nc1nc2c(ncn2/C=C2/CC2(CO)CO)c(=O)[nH]1", "strain": "RCdelta97", "read by": "plaque count", "value": "25 µM"}
{"compound": "OC[C@H]1O[C@@H](n2cnc3cnnnc32)[C@H](O)[C@@H]1O", "read by": "virus yield", "value": "15 µM"}
{"compound": "CC1(C)OCC2(CC(CO)OC2=O)O1", "strain": "AD169", "value": ">100 µM"}
{"compound": "CC(N=[N+]=[N-])c1cn([C@H]2C[C@H](O)[C@@H](CO)O2)c(=O)[nH]c1=O", "strain": "AD169", "read by": "cytopathic effect", "value": ">125 µM"}
{"compound": "CCCCCOc1nc(N)nc2c1ncn2/C=C1/C[C@@H]1CO", "read by": "plaque count", "value": "1.4 µM"}
{"compound": "Nc1nc2c(ncn2COC(CO)CO)c(=O)[nH]1", "strain": "Isolate D10 (D344E mutation)", "read by": "plaque count", "value": "4.6 µM"}
{"compound": "NNc1nnnc2c1ncn2[C@@H]1O[C@H](CO)[C@@H](O)[C@H]1O", "read by": "plaque count", "value": ">100 µM"}
{"compound": "CC(NC(=S)Nc1ccc(NC(=O)c2ccccc2F)cc1C#N)c1ccc(F)cc1", "strain": "AD169", "read by": "ELISA", "value": ">10 µg/mL"}
{"compound": "CCCCCCCCCCCCCCCCCCO[C@H]1O[C@H](COP(=O)(O)C(=O)O)[C@@H](O)[C@H](O)[C@H]1O", "strain": "TOWNE", "value": "5.6 µM"}
{"compound": "N#Cc1c(Cl)n([C@@H]2O[C@H](CO)[C@@H](O)[C@H]2O)c2cc(Cl)c(Cl)cc12", "read by": "plaque count", "value": "0.55 µM"}
{"compound": "Cc1nc2c3c(cn([C@@H]4O[C@H](CO)[C@@H](O)[C@H]4O)c3n1)C(N)=NN2C", "read by": "plaque count", "value": ">100 µM"}
{"compound": "CCCCCCCCCCCCCCO[C@H]1O[C@H](CO)[C@@H](O)[C@H](O)[C@H]1O", "strain": "TOWNE", "value": "89 µM"}
{"compound": "COc1cc(NC(=O)c2ccccc2F)ccc1NC(=S)NC1=CC(Cl)C(C)(OC)C=C1", "read by": "virus yield", "value": "3 µg/mL"}
{"compound": "CCCCCCCCCCCCCCCCCCCCCCCCOP(=O)(O)CO[C@H](CO)Cn1ccc(N)nc1=O", "strain": "AD169", "read by": "plaque count", "value": "0.06 µM"}
{"compound": "CSc1nc2cnsc2n1[C@@H]1O[C@H](CO)[C@@H](O)[C@@H]1O", "strain": "TOWNE", "read by": "plaque count", "value": "100 µM"}
{"compound": "Nc1nc2c(ncn2COC(CO)CO)c(=O)[nH]1", "strain": "1117R (drug-resistant)", "read by": "plaque count", "value": "42 µM"}
{"compound": "CC(C)Nc1nc2cc(Cl)c(Cl)cc2n1[C@H]1C[C@H](O)[C@@H](CO)O1", "strain": "TOWNE", "read by": "plaque count", "value": "24 µM"}
{"compound": "CN1N=C(N)c2cn([C@@H]3O[C@H](CO)[C@@H](O)[C@H]3O)c3nc(-c4ccccc4)nc1c23", "read by": "plaque count", "value": "32 µM"}
{"compound": "Cn1c(=O)ccn(/C=C2/CC2(CO)CO)c1=O", "read by": "plaque count", "value": ">100 µM"}
{"compound": "CCCCNc1c(C=O)c2cc(Cl)c(Cl)cc2n1[C@@H]1O[C@H](CO)[C@@H](O)[C@H]1O", "read by": "plaque count", "value": "7 µM"}
{"compound": "OC[C@H]1O[C@@H](n2c(Cl)nc3cc(Cl)c(Cl)cc32)[C@H](O)[C@@H]1O", "strain": "Isolate D10 (D344E mutation)", "read by": "plaque count", "value": "17 µM"}
{"compound": "CN(C)c1cccc2c(S(=O)(=O)Nc3ccc(NC(=O)C(C)(C)CO)cc3)cccc12", "strain": "2916R (1263W94-resistant)", "read by": "virus yield", "value": "<0.9 µM"}
{"compound": "Nc1nc2c(ncn2COC(CO)CO)c(=O)[nH]1", "read by": "plaque count", "value": "7.7 µM"}
{"compound": "OC[C@H]1O[C@@H](n2c(Br)nc3cc(Cl)c(Cl)cc32)[C@H](O)[C@@H]1O", "strain": "RCMP97 (drug-resistant)", "read by": "plaque count", "value": "1 µM"}
{"compound": "CCCCCCCCCCCCCCCCCCCCCCOP1(=O)CO[C@@H](Cn2ccc(N)nc2=O)CO1", "strain": "AD169", "read by": "plaque count", "value": "0.041 µM"}
{"compound": "CCO[C@@H]1[C@@H](OCC)[C@H](Cc2ccccc2)O[C@@H]2CO[C@@H](c3ccc(Cl)cc3)O[C@@H]12", "read by": "cytopathic effect", "value": ">20 µg/mL"}
{"compound": "CC(=O)Nc1n[nH]c(=O)c2c1ncn2[C@@H]1O[C@H](CO)[C@@H](O)[C@H]1O", "read by": "plaque count", "value": ">100 µM"}
{"compound": "Cn1cc(C(=O)NCc2ccc(Cl)cc2)c(=O)c2cc(CN3CCOCC3)ccc21", "strain": "PH", "read by": "plaque count", "value": "1 µM"}
{"compound": "CCCCCCCCCCCCCCCCCCOC[C@H](COP(=O)(O)CO[C@H](CO)Cn1ccc(N)nc1=O)OCc1ccccc1", "strain": "AD169", "read by": "plaque count", "value": "0.003 µM"}
{"compound": "CC(=O)OC1CC2(CO1)COC(C)(C)O2", "strain": "AD169", "value": ">100 µM"}
{"compound": "CCCCCCCCCCCCCCCCCCCCOP1(=O)CO[C@@H](Cn2ccc(N)nc2=O)CO1", "strain": "AD169", "read by": "plaque count", "value": "0.014 µM"}
{"compound": "OC[C@H]1O[C@@H](n2cnc3cc(Cl)c(Cl)cc32)C[C@@H]1O", "strain": "TOWNE", "read by": "plaque count", "value": ">100 µM"}
{"compound": "CN[C@H]1C[C@@H](n2cnc3c(N)ncnc32)[C@H](O)[C@@H]1O", "value": ">100 µg/mL"}
{"compound": "Nc1nc(NC2CC2)c2ncn(/C=C3/C[C@@H]3CO)c2n1", "read by": "plaque count", "value": "1.9 µM"}
{"compound": "CCCCCCCC/C=C\\CCCCCCCOCCCOP1(=O)CO[C@@H](Cn2ccc(N)nc2=O)CO1", "strain": "AD169", "read by": "plaque count", "value": "0.0025 µM"}
{"compound": "CCCCCCCCCCCCCCO[C@H]1O[C@H](COP(=O)(O)C(=O)O)[C@@H](O)[C@H](O)[C@H]1O", "strain": "TOWNE", "value": "3.1 µM"}
{"compound": "O=C(NCc1ccc(Cl)cc1)c1cn2c3c(cc(CN4CCOCC4)cc3c1=O)OC(c1cccnc1)C2", "strain": "Toledo", "read by": "plaque count", "value": "5.8 µM"}
{"compound": "CC(C)[C@H](N)C(=O)OCC(COC(=O)[C@@H](N)C(C)C)OCn1cnc2c(=O)[nH]c(N)nc21", "read by": "plaque count", "value": "2.9 µM"}
{"compound": "Cn1cc(C(=O)NCc2ccc(Cl)cc2)c(=O)c2cc(CN3CCOCC3)ccc21", "strain": "DAVIS", "read by": "plaque count", "value": "0.3 µM"}
{"compound": "CC(=O)N(O)CCCCCNC(=O)CCC(=O)N(O)CCCCCNC(=O)CCC(=O)N(O)CCCCCN", "strain": "AD169", "read by": "plaque count", "value": "4.9 µM"}
{"compound": "CCCOc1nc(N)nc2c1ncn2/C=C1/C[C@@H]1CO", "read by": "plaque count", "value": "2 µM"}
{"compound": "Nc1nc2c(ncn2COC(CO)CO)c(=O)[nH]1", "read by": "plaque count", "value": "7.4 µM"}
{"compound": "Nc1nc2c(ncn2COC(CO)CO)c(=O)[nH]1", "strain": "DAVIS", "read by": "virus yield", "value": "0.7 µM"}
{"compound": "OC[C@H]1O[C@@H](c2cc(Cl)nc3cc(Cl)c(Cl)cc23)C(O)C1O", "read by": "plaque count", "value": "30 µM"}
{"compound": "COc1ccc2c(c1)c(CC(=O)O)c(C)n2C(=O)c1ccc(Cl)cc1", "strain": "AD169", "value": ">500 µM"}
{"compound": "Nc1nc2c(ncn2[C@@H]2C[C@H](CO)[C@H]2CO)c(=O)[nH]1", "strain": "Isolate Helebrand (wild type)", "read by": "plaque count", "value": "6.24 µM"}
{"compound": "Nc1nc2c(ncn2/C=C2/CC2(CO)CO)c(=O)[nH]1", "strain": "AD169", "read by": "plaque count", "value": "11.7 µM"}
{"compound": "CN(C)c1cccc2c(S(=O)(=O)Nc3ccc(NC(=O)C(C)(C)CO)cc3)cccc12", "strain": "Isolate Helebrand (wild type)", "read by": "plaque count", "value": "1.21 µM"}
{"compound": "O[C@@H]1[C@H](O)[C@H](O)CO[C@H]1n1c(Br)nc2cc(Cl)c(Cl)cc21", "strain": "Coffman", "read by": "plaque count", "value": "3.8 µM"}
{"compound": "CC1(C)OCC(COC(=O)O)(CC(COC(=O)O)OC(=O)O)O1", "strain": "AD169", "value": ">100 µM"}

A second listing of 6 rows from above:

| compound | strain | read by | value |
|---|---|---|---|
| Nc1nc2c(ncn2COC(CO)CO)c(=O)[nH]1 | 1117R (drug-resistant) | plaque count | 42 µM |
| Nc1ncnc2c1ncn2/C=C1\[C@H](CO)C1(F)F | TOWNE | - | 21 µM |
| Cn1c(=O)ccn(/C=C2/CC2(CO)CO)c1=O | - | plaque count | >100 µM |
| CC(C)[C@H](N)C(=O)OCC(COC(=O)[C@@H](N)C(C)C)OCn1cnc2c(=O)[nH]c(N)nc21 | - | plaque count | 2.9 µM |
| CCCCCCCCCCCCCCO[C@H]1O[C@H](COP(=O)(O)C(=O)O)[C@@H](O)[C@H](O)[C@H]1O | TOWNE | - | 3.1 µM |
| OC[C@H]1O[C@@H](n2c(=S)[nH]c3cc(Cl)c(Cl)cc32)C[C@@H]1O | TOWNE | plaque count | >100 µM |

ECn: concentration that inhibits the pathogen or its effect by n%. Blank or dashed fields: not listed here.